Laboratory results reported in patent US20210324003A1.

Molecular target: MT145K gp120 monomer
Assay: ELISA
Set-up: unit not given beside the values
Details: Fc fusion

Human CD4-IgG2 immunoadhesin (from UniProt P01730 26-204)
EC50: 6.500 ?
